Results of unrelated studies side by side (data: NIAID ChemDB).

Common to all: whole-cell or culture tests; agent: HIV-1; cell line: MT-4; read-out: EC50

a–b is a range or a potency band. An empty or dashed field is not shown. Neighbouring rows are from separate reports. ECn is the concentration giving n% inhibition of infection, replication or growth.

| structure | strain | mutations | read by | value |
|---|---|---|---|---|
| C/C(=N\Nc1nc(-c2ccc(Br)cc2)cs1)c1ccc(Cl)c(Cl)c1 | IIIB | - | MTT | >13.05 µM |
| C#CCOCn1c(Cc2cccc(F)c2)c(CC)c(=O)[nH]c1=O | A17 | K103N + Y181C | MTT | 56 µM |
| N#Cc1cc(Cl)cc(Oc2cc(Cl)cc(OCC(=O)Nc3ccc4[nH]cnc4c3Cl)c2)c1 | - | - | p24 | <20 µM |
| COC(O)c1cnc(Nc2ccc(C#N)cc2)nc1Nc1c(C)cc(/C=C/C#N)cc1C | MDR | - | - | 240 µM |
| CC(C)C1=C2[C@H]3CC[C@@H]4[C@@]5(C)CC[C@H](OC(=O)C6C[C@@H](C(=O)O)C6(C)C)C(C)(C)[C@@H]5CC[C@@]4(C)[C@]3(C)CC[C@@]2(NC(=O)C(C)(C)NC(=O)c2ccc(Cl)cc2)CC1=O | NL4-3 | - | p24 | <0.005 µM |
| O=c1c2ccccc2sn1/N=C/c1ccc(O)c(O)c1 | - | EFV-resistant (K103 V179D P225H) | MTT | >44 µM |
| CCOCn1c(Cc2ccccc2)c(C(C)C)c(=O)[nH]c1=O | N119 (Y181C) | - | MTT | >20 µM |
| Cc1ccc2sn(/N=C/c3ccc(O)cc3)c(=O)c2c1 | - | K103N + Y181C | MTT | >23 µM |
| Clc1ccc(-c2csc(N/N=C/c3ccccn3)n2)cc1 | IIIB | - | MTT | >2.19 µM |
| Cc1cc(/C=C/C#N)cc(C)c1Nc1nc(Nc2ccc(C#N)cc2)ncc1C(O)c1cccnc1 | PSI (IIIB) | - | - | 135 µM |
| O=c1c2ccccc2sn1/N=C/c1ccccc1F | - | - | MTT | >11 µM |
| O=C(NCc1ccc(F)cc1)c1nc2n(c(=O)c1O)CCN(Cc1cn[nH]n1)C2 | - | - | p24 | <50 µM |
| Cc1cc(-c2ccc(C#N)cc2)cc(Cl)c1Oc1nc(Nc2ccc(C#N)cc2)nc2ccsc12 | IIIB | L100I | MTT | 0.0284 µM |
| CC(C)C1=C2[C@H]3CC[C@@H]4[C@@]5(C)CC[C@H](OC(=O)C6C[C@@H](C(=O)O)C6(C)C)C(C)(C)[C@@H]5CC[C@@]4(C)[C@]3(C)CC[C@@]2(NC(=O)C(C)(C)NC(=O)Cc2ccc(Cl)cc2)CC1=O | NL4-3 | - | p24 | <0.005 µM |
| Cc1cc(/C=C/C#N)cc(C)c1Nc1nc(Nc2ccc(C#N)cc2)ncc1C(O)OCCO | K103N + Y181C | - | - | 0.01995 µM |
| Cc1nc(C)c(C(=O)NC(C)(C)C(=O)N[C@@]23CC[C@]4(C)[C@H](CC[C@@H]5[C@@]6(C)CC[C@H](OC(=O)C7C[C@@H](C(=O)O)C7(C)C)C(C)(C)[C@@H]6CC[C@]54C)C2=C(C(C)C)C(=O)C3)s1 | NL4-3 | - | p24 | <0.005 µM |
| Cc1cc(/C=C/C#N)cc(C)c1Nc1nc(Nc2ccc(C#N)cc2)ncc1C(O)n1ccnc1 | MDR | - | - | 501 µM |
| Cn1ccc(CN2CCn3c(nc(C(=O)NCc4ccc(F)cc4)c(O)c3=O)C2(C)C)n1 | - | - | p24 | <1 µM |
| N#Cc1ccc(-c2csc(N/N=C/c3ccccn3)n2)cc1 | IIIB | - | MTT | >1.71 µM |
| Cc1ccc2sn(/N=C/c3ccc([N+](=O)[O-])cc3[N+](=O)[O-])c(=O)c2c1 | - | EFV-resistant (K103 V179D P225H) | MTT | >100 µM |
| CCOC(=O)c1cc2c3cc(OC)ccc3c3c(N)cccc3n2c1C | - | - | cytopathic effect / MTT | >200 µM |
| C/C(=N\Nc1nc(-c2ccc(Cl)cc2)cs1)c1ccc(-c2ccc(Br)cc2)cc1 | IIIB | - | MTT | >10.23 µM |
| CN1CCn2c(nc(C(=O)NCc3ccc(F)cc3)c(O)c2=O)C1CN(C)S(=O)(=O)N(C)C | - | - | p24 | 1–10 µM |
| Cc1nc2c(c(C)c(C)n2Cc2cccc(Cl)c2)c(-c2ccc(Cl)cc2)c1C(OC(C)(C)C)C(=O)O | IIIB | - | MTT | 0.154 µM |
| O=[N+]([O-])c1ccc(-c2csc(N/N=C/c3ccncc3)n2)cc1 | IIIB | - | MTT | >75.6 µM |
| CC(C)C1=C2[C@H]3CC[C@@H]4[C@@]5(C)CC[C@H](OC(=O)C6C[C@@H](C(=O)O)C6(C)C)C(C)(C)[C@@H]5CC[C@@]4(C)[C@]3(C)CC[C@@]2(NC(=O)C(C)(C)NC(=O)c2ccc3ccccc3n2)CC1=O | NL4-3 | - | p24 | 0.00501–0.01 µM |
| Cc1ccc2sn(/N=C/c3ccccc3O)c(=O)c2c1 | - | - | MTT | >30 µM |
| CC(C)[C@H](NC(=O)OCc1ccccn1)C(=O)N[C@@H](Cc1ccccc1)[C@@H](O)C[C@H](Cc1ccccc1)NC(=O)OCc1cccnc1 | NL4-3 | PR-L10R M46I L63P 184V | p24 | <1.5 µM |
| C=CCOCn1c(Cc2cccc(F)c2)c(CC)c(=O)[nH]c1=O | N119 (Y181C) | - | MTT | 10 µM |
| COCCOC(O)c1cnc(Nc2ccc(C#N)cc2)nc1Nc1c(C)cc(/C=C/C#N)cc1C | K103N + Y181C | - | - | 0.03162 µM |
| CN(C)CC1c2nc(C(=O)NCc3ccc(F)cc3)c(O)c(=O)n2CCN1S(C)(=O)=O | - | - | p24 | <50 µM |
| N#Cc1ccc(Nc2nc(Oc3ccc(-c4ccc(C#N)cc4)c(F)c3F)c3sccc3n2)cc1 | IIIB | F227L V106A | MTT | 0.6028 µM |
| NS(=O)(=O)c1ccc(NC(=O)COc2cccc(Oc3ccccc3)c2)c(Cl)c1 | - | - | p24 | <20 µM |
| CCC[C@@]1(CCc2ccccc2)CC(O)=C([C@H](CC)c2cccc(NS(=O)(=O)c3ccc(C(F)(F)F)cn3)c2)C(=O)O1 | T21055 | L10F I47V | reporter gene | 13903 nM |
| CNC(O)c1cnc(Nc2ccc(C#N)cc2)nc1Nc1c(C)cc(/C=C/C#N)cc1C | PSI (IIIB) | - | - | 427 µM |
| CCOC(=O)c1cc(-c2cccc(N)c2)n(-c2cccc(OC)c2)c1C | - | - | cytopathic effect / MTT | >32 µM |
| N#Cc1ccc(Nc2nc(Oc3c(F)cc(-c4ccc(C#N)cc4)cc3F)c3sccc3n2)cc1 | RES056 | - | MTT | >78.6 µM |
| O=c1c2ccccc2sn1/N=C/c1ccc([N+](=O)[O-])cc1[N+](=O)[O-] | - | Y181C | MTT | >100 µM |
| COc1cc(Oc2nc(Nc3ccc(C#N)cc3)nc3ccsc23)ccc1-c1ccc(C#N)cc1 | IIIB | - | MTT | 0.0253 µM |
| CCOC(=O)c1cc(-c2ccccc2)n(-c2cccc(N=[N+]=[N-])c2)c1C | - | - | cytopathic effect / MTT | >176 µM |
| C/C(=N\Nc1nc(-c2ccc(Cl)cc2)cs1)c1ccc2c(c1)OCO2 | IIIB | - | MTT | >21.83 µM |
| CCOCn1c(Cc2cc(C)cc(C)c2)c(C(C)C)c(=O)[nH]c1=O | A17 | K103N + Y181C | MTT | 0.3 µM |
| Cc1cc(CNC(=O)c2nc3n(c(=O)c2O)CCNCC3N(C)C(=O)C(=O)N(C)C)ccc1F | - | - | p24 | <1 µM |
| Cc1nc2c(c(C)c(C)n2CCN2CCCC2=O)c(-c2ccc(Cl)cc2)c1[C@H](OC(C)(C)C)C(=O)O | IIIB | - | MTT | 0.0253 µM |
| C/C(=N\Nc1nc(-c2ccc(C#N)cc2)cs1)c1ccc(-n2ccnc2)cc1 | IIIB | - | MTT | >73.95 µM |
| Cc1cc(/C=C/C#N)cc(C)c1Nc1nc(Nc2ccc(C#N)cc2)ncc1C(O)C(C)C | MDR | - | - | 7.59 µM |
| Cc1nc2c(c(C)c(C)n2CC2(O)CC2)c(-c2ccc(Cl)cc2)c1[C@H](OC(C)(C)C)C(=O)O | IIIB | - | MTT | 0.0206 µM |
| N#Cc1cc(Cl)cc(Oc2cc(OCc3nc(-c4ccccc4)no3)ccc2Cl)c1 | - | - | p24 | <20 µM |
| Cc1cn(-c2ccc(C(=O)NC(C)(C)C(=O)N[C@@]34CC[C@]5(C)[C@H](CC[C@@H]6[C@@]7(C)CC[C@H](OC(=O)C8C[C@@H](C(=O)O)C8(C)C)C(C)(C)[C@@H]7CC[C@]65C)C3=C(C(C)C)C(=O)C4)cc2)cn1 | NL4-3 | V7A | p24 | >0.05 µM |
| N#Cc1cc(Cl)cc(Oc2cc(CCc3[nH]nc4ncccc34)ccc2Cl)c1 | - | - | p24 | <20 µM |
| Cc1cccc(Cn2c(C)c(C)c3c(-c4ccc(Cl)cc4)c(C(OC(C)(C)C)C(=O)O)c(C)nc32)n1 | IIIB | - | MTT | 0.125 µM |
| CCC(O)c1cnc(Nc2ccc(C#N)cc2)nc1Nc1c(C)cc(/C=C/C#N)cc1C | K103N + Y181C | - | - | 0.09333 µM |
| CCOC(=O)c1cc(-c2cccc(N)c2)n(-c2ccccc2)c1C | - | - | cytopathic effect / MTT | >300 µM |
| C=C(C)COCn1c(Cc2cc(F)ccc2F)c(CC)c(=O)[nH]c1=O | EFV-resistant (K103R V179D P225H) | - | MTT | >56 µM |
| COP(=O)(c1cc(C)cc(CCC#N)c1)c1c(C(N)=O)[nH]c2ccc(Cl)c(F)c12 | NL4-3 | K103N/Y181C | p24 / ELISA | 0.0028 µM |
| CC(C)C1=C2[C@H]3CC[C@@H]4[C@@]5(C)CC[C@H](OC(=O)C6C[C@@H](C(=O)O)C6(C)C)C(C)(C)[C@@H]5CC[C@@]4(C)[C@]3(C)CC[C@@]2(NC(=O)C(C)(C)NC(=O)CN2CCS(=O)(=O)CC2)CC1=O | NL4-3 | - | p24 | <0.005 µM |
| Cc1cc(/C=C/C#N)cc(C)c1Nc1nc(Nc2ccc(C#N)cc2)ncc1C(O)OCc1cccnc1 | K103N + Y181C | - | - | 0.257 µM |
| N#Cc1cc(Cl)cc(Oc2c(Br)ccc(CC(=O)Nc3ccc(S(N)(=O)=O)cc3Cl)c2F)c1 | - | Y181C | - | 0.0014 µM |

The last 4 rows once more:

structure | strain | mutations | read by | value
COP(=O)(c1cc(C)cc(CCC#N)c1)c1c(C(N)=O)[nH]c2ccc(Cl)c(F)c12 | NL4-3 | K103N/Y181C | p24 / ELISA | 0.0028 µM
CC(C)C1=C2[C@H]3CC[C@@H]4[C@@]5(C)CC[C@H](OC(=O)C6C[C@@H](C(=O)O)C6(C)C)C(C)(C)[C@@H]5CC[C@@]4(C)[C@]3(C)CC[C@@]2(NC(=O)C(C)(C)NC(=O)CN2CCS(=O)(=O)CC2)CC1=O | NL4-3 | - | p24 | <0.005 µM
Cc1cc(/C=C/C#N)cc(C)c1Nc1nc(Nc2ccc(C#N)cc2)ncc1C(O)OCc1cccnc1 | K103N + Y181C | - | - | 0.257 µM
N#Cc1cc(Cl)cc(Oc2c(Br)ccc(CC(=O)Nc3ccc(S(N)(=O)=O)cc3Cl)c2F)c1 | - | Y181C | - | 0.0014 µM